The term koff denotes the rate constant with which the complex falls apart. What is called kon is a measure of how fast the partners come together. As usually defined, the Kd is the constant that tells how readily two partners part at equilibrium.

In assay [1] the target is recombinant streptococcal mitogenic exotoxin Z (SMEZ), mature protein with N-terminal His6-tag (Streptococcus pyogenes).
Assay [2] has as its target T1, recombinant toxic shock syndrome toxin-1 (TSST-1), mature protein with N-terminal His6-tag (Staphylococcus aureus), P06886.
T1 chain: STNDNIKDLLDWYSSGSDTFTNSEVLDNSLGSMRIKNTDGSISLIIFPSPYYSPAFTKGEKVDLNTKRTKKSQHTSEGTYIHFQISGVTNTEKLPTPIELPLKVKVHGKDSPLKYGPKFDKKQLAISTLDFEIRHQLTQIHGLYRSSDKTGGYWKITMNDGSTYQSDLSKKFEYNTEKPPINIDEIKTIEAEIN

As to EKFDSVHSKYM [pB2-4, immobilized for Surface Plasmon Resonance], in assay [1], the dissociation rate constant (koff) stood at 0.00293 s⁻¹ and the kon came out at 3020 M⁻¹ s⁻¹. For the same molecule, in assay [2], the Kd was 9.8 µM and the kon is 4080 M⁻¹ s⁻¹.

For DSDSWTLR (modifications not checked) [pB2-6, immobilized for Surface Plasmon Resonance], in assay [1], the Kd was 1.79 µM, the koff was found to be 0.00286 s⁻¹ and the kon was 1590 M⁻¹ s⁻¹.

Source of the values: patent publication US20200148741A1.
